Results deposited as PubChem BioAssay AID1259414 (Drosophila RNAi Screening Center, 2018).
Test: 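Fly genes that alter Wolbachia amount inside host cells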 (primary screen). Cell system: Drosophila JW18 cells infected with Wolbachia. Knock-down reagent: long dsRNA against Drosophila genes, 0.25 µg dsRNA per well of a 384-well plate. Time to read-out: 5 days. Treatment: cells persistently infected with Wolbachia before knock-down; no added drug. Measurement: 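Automated imaging of bacterial rRNA staining divided by host cell count, reported as plate-normalised robust z-score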. Reading the numbers: Wolbachia per cell robust z: higher = more Wolbachia per host cell than the plate typical. Active means: 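Hit when robust z is 1.5 or more, or -1.5 or less, in at least two of three replicates; excludes dsRNAs with several or no targets, genes not expressed in JW18 and well A1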.
The screen tested about 24,000 reagents; this is a random part of those that have a named target and a result. Of all reagents, about 1,210 (5%) are marked active. 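Inactive calls also include excluded dsRNAs with several or no targets, genes unexpressed in JW18, and well A1, regardless of score.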 Names joined by + are all predicted targets of the reagent.

How did the screen score Hexo1 (Hexosaminidase 1) [DRSC08663]?
Wolbachia per cell robust z, rep 1: -1.57; Wolbachia per cell robust z, rep 2: -1.1; Wolbachia per cell robust z, rep 3: -0.138; call: inactive

What did the screen give for Spn85F + CG5359 [DRSC26211]?
Wolbachia per cell robust z, rep 1: -0.377; Wolbachia per cell robust z, rep 2: -5.4; Wolbachia per cell robust z, rep 3: -0.517; call: inactive

For CG43052 [DRSC03059], how do the results read?
Wolbachia per cell robust z, rep 1: 0.396; Wolbachia per cell robust z, rep 2: -0.27; Wolbachia per cell robust z, rep 3: -0.394; call: inactive

How did the screen score ng4 (new glue 4) [DRSC18805]?
Wolbachia per cell robust z, rep 1: -2.51; Wolbachia per cell robust z, rep 2: -1.89; Wolbachia per cell robust z, rep 3: -0.0358; call: inactive

With comm2 [DRSC10877], how do the results read?
Wolbachia per cell robust z, rep 1: -0.51; Wolbachia per cell robust z, rep 2: 0.0481; Wolbachia per cell robust z, rep 3: -0.436; call: inactive

With CG18659 [DRSC06784], how do the results read?
Wolbachia per cell robust z, rep 1: 2.15; Wolbachia per cell robust z, rep 2: 0.983; Wolbachia per cell robust z, rep 3: 0.118; call: inactive

Which result is listed for CG15406 [DRSC00420]?
Wolbachia per cell robust z, rep 1: -1.15; Wolbachia per cell robust z, rep 2: 0.912; Wolbachia per cell robust z, rep 3: -0.274; call: inactive

Which result is listed for CG15406 [DRSC28108]?
Wolbachia per cell robust z, rep 1: 0.775; Wolbachia per cell robust z, rep 2: -1.55; Wolbachia per cell robust z, rep 3: 0.249; call: inactive

For Spn42Dd (Serpin 42Dd) [DRSC05024], what does the deposit list?
Wolbachia per cell robust z, rep 1: -1.93; Wolbachia per cell robust z, rep 2: -1.82; Wolbachia per cell robust z, rep 3: -10.3; call: active

For Spn42Dd (Serpin 42Dd) [DRSC22060], how do the results read?
Wolbachia per cell robust z, rep 1: 0.467; Wolbachia per cell robust z, rep 2: 0.166; Wolbachia per cell robust z, rep 3: -0.427; call: inactive

What is on record for CG16853 [DRSC01877]?
Wolbachia per cell robust z, rep 1: 1.37; Wolbachia per cell robust z, rep 2: -0.0521; Wolbachia per cell robust z, rep 3: 0.392; call: inactive

Which result is listed for CG3649 [DRSC04400]?
Wolbachia per cell robust z, rep 1: 0.249; Wolbachia per cell robust z, rep 2: 0.618; Wolbachia per cell robust z, rep 3: -2.39; call: inactive

With CG3649 [DRSC28728], what does the deposit list?
Wolbachia per cell robust z, rep 1: 0.27; Wolbachia per cell robust z, rep 2: -0.761; Wolbachia per cell robust z, rep 3: -1.73; call: inactive

What is on record for mei-217 + mei-218 [DRSC20349]?
Wolbachia per cell robust z, rep 1: -1.17; Wolbachia per cell robust z, rep 2: -1.55; Wolbachia per cell robust z, rep 3: -3.95; call: inactive

With mei-217 + mei-218 [DRSC29292], how do the results read?
Wolbachia per cell robust z, rep 1: 0.821; Wolbachia per cell robust z, rep 2: 0.366; Wolbachia per cell robust z, rep 3: 0.054; call: inactive

How did the screen score Pus7 (Pseudouridine synthase 7) [DRSC10703]?
Wolbachia per cell robust z, rep 1: 0.772; Wolbachia per cell robust z, rep 2: -0.911; Wolbachia per cell robust z, rep 3: -0.472; call: inactive

For Pus7 (Pseudouridine synthase 7) [DRSC27484], how do the results read?
Wolbachia per cell robust z, rep 1: 1.08; Wolbachia per cell robust z, rep 2: -0.634; Wolbachia per cell robust z, rep 3: 0.887; call: inactive

What did the screen give for CG2233 [DRSC18217]?
Wolbachia per cell robust z, rep 1: -0.0856; Wolbachia per cell robust z, rep 2: -0.846; Wolbachia per cell robust z, rep 3: 0.162; call: inactive

How did the screen score L2HGDH (L-2-hydroxyglutarate dehydrogenase) [DRSC02082]?
Wolbachia per cell robust z, rep 1: -0.393; Wolbachia per cell robust z, rep 2: -1.16; Wolbachia per cell robust z, rep 3: 0.335; call: inactive

Which result is listed for L2HGDH (L-2-hydroxyglutarate dehydrogenase) [DRSC25864]?
Wolbachia per cell robust z, rep 1: 0.0192; Wolbachia per cell robust z, rep 2: -0.537; Wolbachia per cell robust z, rep 3: -0.895; call: inactive

With Glt (Glutactin) [DRSC03333], how do the results read?
Wolbachia per cell robust z, rep 1: -6.83; Wolbachia per cell robust z, rep 2: 1.7; Wolbachia per cell robust z, rep 3: -0.811; call: inactive

How did the screen score Glt (Glutactin) [DRSC28681]?
Wolbachia per cell robust z, rep 1: -1.37; Wolbachia per cell robust z, rep 2: -0.112; Wolbachia per cell robust z, rep 3: -0.324; call: inactive

What did the screen give for CG17154 [DRSC10253]?
Wolbachia per cell robust z, rep 1: -2.48; Wolbachia per cell robust z, rep 2: 0.497; Wolbachia per cell robust z, rep 3: 1.12; call: inactive

How did the screen score CG31051 [DRSC15034]?
Wolbachia per cell robust z, rep 1: 0.457; Wolbachia per cell robust z, rep 2: -1.04; Wolbachia per cell robust z, rep 3: -0.974; call: inactive

With CG5515 [DRSC15825], how do the results read?
Wolbachia per cell robust z, rep 1: 1.43; Wolbachia per cell robust z, rep 2: 3.05; Wolbachia per cell robust z, rep 3: 0.894; call: inactive

For Cyp12d1-d (Cytochrome P450 12d1 distal) [DRSC41330], what was measured?
Wolbachia per cell robust z, rep 1: 1.29; Wolbachia per cell robust z, rep 2: -0.178; Wolbachia per cell robust z, rep 3: -0.582; call: inactive

With ed (echinoid) [DRSC00350], what does the deposit list?
Wolbachia per cell robust z, rep 1: -3.53; Wolbachia per cell robust z, rep 2: 0.15; Wolbachia per cell robust z, rep 3: -1.66; call: active

What did the screen give for ed (echinoid) [DRSC00438]?
Wolbachia per cell robust z, rep 1: -5.66; Wolbachia per cell robust z, rep 2: 0.646; Wolbachia per cell robust z, rep 3: -0.564; call: inactive

What is on record for ed (echinoid) [DRSC00439]?
Wolbachia per cell robust z, rep 1: 0.687; Wolbachia per cell robust z, rep 2: 0.963; Wolbachia per cell robust z, rep 3: -0.116; call: inactive

With ed (echinoid) [DRSC00478], how do the results read?
Wolbachia per cell robust z, rep 1: 1; Wolbachia per cell robust z, rep 2: 0.73; Wolbachia per cell robust z, rep 3: -0.429; call: inactive

2 entries from above in another layout:
mei-217 + mei-218 [DRSC20349]
- Wolbachia per cell robust z, rep 1: -1.17
- Wolbachia per cell robust z, rep 2: -1.55
- Wolbachia per cell robust z, rep 3: -3.95
- call: inactive

mei-217 + mei-218 [DRSC29292]
- Wolbachia per cell robust z, rep 1: 0.821
- Wolbachia per cell robust z, rep 2: 0.366
- Wolbachia per cell robust z, rep 3: 0.054
- call: inactive
